Earlier results on one compound are cited in article PMC5543128.

SMILES strings stand for the structures. Some compounds may have been tested in ways that are not shown here.

This data set relates to nicotinic receptor of skeletal muscles. Particulars: cited from earlier work.

For the compound `CC[C@H](C)[C@H](NC(=O)CNC(=O)[C@H](Cc1ccc(O)cc1)NC(=O)[C@@H](N)[C@@H](C)O)C(=O)N[C@@H](Cc1ccc(O)cc1)C(=O)N[C@@H](CC(=O)O)C(=O)N[C@@H](C)C(=O)N[C@@H](CCCCN)C(=O)N1CCC[C@H]1C(=O)N1C[C@H](O)C[C@H]1C(=O)N[C@@H](Cc1ccccc1)C(=O)N[C@@H](CO)C(=O)N[C@H]1CSSC[C@@H](C(=O)N[C@H](C(=O)N[C@@H](CC(C)C)C(=O)N2CCC[C@H]2C(=O)N2C[C@H](O)C[C@H]2C(=O)N[C@@H](CC(N)=O)C(=O)N[C@@H](CC(C)C)C(=O)N[C@@H](CCCNC(=N)N)C(=O)N2C[C@H](O)C[C@H]2C(=O)N[C@@H](CCCCN)C(=O)N[C@@H](Cc2ccccc2)C(=O)N[C@@H](CCCCN)C(=O)N[C@@H](CCC(=O)O)C(N)=O)C(C)C)NC(=O)CNC(=O)CNC(=O)[C@H](CCCNC(=N)N)NC(=O)[C@H](CC(C)C)NC(=O)CNC(=O)[C@H](C)NC1=O`, the potency and selectivity entry is “highly potent and selective for the nicotinic receptor of skeletal muscles”.
